Results taken from patent US20140234336A1.

Assays:
[1] = target: HA of H5N1 influenza virus A/Vietnam/1203/04 x PR8 (influenza A virus H5N1 A/Vietnam/1203/04 x PR8); test: cell-based or functional assay
[2] = target: HA of H7N2 influenza virus A/turkey/Virginia/02 x PR8 (influenza A virus H7N2 A/turkey/Virginia/02 x PR8); test: cell-based or functional assay

Substance: CT149 antibody
- MN titer [1]: 2.5 µg/mL
- MN titer [2]: 10 µg/mL
